Reference: patent US20240352445A1 (published 2024)

Key:
[1] = target: T1, SARS-CoV-2 spike protein trimer, Omicron (B.1.1.529) variant (SARS-CoV-2, UniProt P0DTC2 16-1213); assay: IC50 (assay not stated)
[2] = target: T2, SARS-CoV-2 spike protein trimer, Omicron (BA.2) variant (SARS-CoV-2, UniProt P0DTC2 16-1213); assay: IC50 (assay not stated)
[3] = target: SARS-CoV-2 spike protein trimer, Delta (B.1.617.2) variant (SARS-CoV-2, UniProt P0DTC2 16-1213); assay: sVNT ACE2 blocking ELISA
[4] = target: T1, SARS-CoV-2 spike protein trimer, …; assay: sVNT ACE2 blocking ELISA
[5] = target: T2, SARS-CoV-2 spike protein trimer, …; assay: sVNT ACE2 blocking ELISA

Binder | IC50 [1] [ng/mL] | IC50 [2] [ng/mL] | IC50 [3] [ng/mL] | IC50 [4] [ng/mL] | IC50 [5] [ng/mL]
G10xA3 (antibody, V domains shown) VH: EVQLVESGGGLVQPGGSLRLSCEASGFTFPNQAMTWVRQAPGKGLEWIGVIASNADTYYASWAKGRFTISRDNSKNTLYLQMNSLRAEDTAVYYCARHPGSAGYGYGHYYAMDPWGQGTLVTVSS VL: DIQMTQSPSSLSASVGDRVTITCQASERVFYGIDWYQQKPGKAPKLLIYGASALWHGVPSRFSGSGSGTDYTLTISSLQPEDFATYYCQQGYMVPIGFGGGTKVEIK | 3.84 | 20.4 | 1.79 | 3.17 | 13
Gx10E2 (antibody, V domains shown) VH: EVQLVESGGGLVQPGGSLRLSCTASGYTVQRHAITWVRQAPGKGLEWIGVIASNADTYYASWAKGRFTISRDNSKNTLYLQMNSLRAEDTAVYYCARHPGSAGYGYGMYYSMDPWGQGTLVTVSS VL: DIQMTQSPSSLSASVGDRVTITCQASERVFYGIDWYQQKPGKAPKLLIYGASALWHGVPSRFSGSGSGTDYTLTISSLQPEDFATYYCQQGYMVPIGFGGGTKVEIK | – | – | 2.31 | 3.47 | 14.1
G10x2 (antibody, V domains shown) VH: EVQLVESGGGLVQPGESLRLSCKASGFTFPNQAMTWVRQAPGKGLEWIGVIASNADTYYASWAKGRFTISRDNSKNTLYLQMNSPRAEDTAVYYCARHPGSAGYGYALYYAMDPWGQGTLVTVSS VL: DIQMTQSPSSLSASVGDRVTITCQASERVFYGIDWYQQKPGKAPKLLIYGASALWHGVPSRFSGSGSGTDYTLTISSLQPEDFATYYCQQGYMVPIGFGGGTKVEIK | – | – | 2.81 | 3.08 | 10.8
G10xE5 (antibody, V domains shown) VH: EVQLVESGGGLVQPGGSLRLSCAASGYSITHQAVTWVRQAPGKGLEWIGVIASNADTYYASWAKGRFTISRDNSKNTLYLQMNSLRAEDTAVYYCARHPGSAGYGYALYYAMDPWGQGTLVTVSS VL: DIQMTQSPSSLSASVGDRVTITCQASERVFYGIDWYQQKPGKAPKLLIYGASALWHGVPSRFSGSGSGTDYTLTISSLQPEDFATYYCQQGYMVPIGFGGGTKVEIK | – | – | 2.56 | 2.06 | 9.24
G10xE6 (antibody, V domains shown) VH: EVQLVESGGGLVQPGGSLRLSCKASGFSLSPYAVTWVRQAPGKGLEWIGVIASNADTYYASWAKGRFTISRDNSKNTLYLQMNSLRAEDTAVYYCARHPGSAGYGYAVYYAMDPWGQGTLVTVSS VL: DIQMTQSPSSLSASVGDRVTITCQASERVFYGIDWYQQKPGKAPKLLIYGASALWHGVPSRFSGSGSGTDYTLTISSLQPEDFATYYCQQGYMVPIGFGGGTKVEIK | – | – | 2 | 2.07 | 8.34
